# PubChem BioAssay AID624099 – ICCB-Longwood, 2012
# Aim: 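Host factors E2 relies on to silence an HPV18 LCR reporter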 (primary screen)
# Cell system: human C33A cervical carcinoma cells (HPV-negative) stably expressing BPV1 E2 and an HPV18 LCR luciferase reporter
# Reagent: siRNA pool against human genes, 40 nM
# Timing: 72 h
# Read-out: 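Per-well luciferase luminescence, z-scored on each plate against the plate mean and SD with control wells left out, then averaged across three replicate plates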
# Reading the numbers: mean z-score and z-score: higher = stronger reporter signal, weaker E2 silencing
# Rule for the call: 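Hit if mean z-score reaches 2 and two or more of three replicate z-scores also reach 2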
# In all, the deposit lists about 21,000 reagents; shown is a random part of them. Over the whole deposit, 497 (2.4%) were called active. 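Higher z means weaker E2 silencing; only reporter increases were scored, and knock-downs that hurt cell survival may mask genuine repressor factors.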 A number with no mark means an inactive call.
Target gene,mean z-score,"z-score, replicate A","z-score, replicate B","z-score, replicate C"
RPL35P10,-0.66,-0.84,-0.75,-0.4
PSEN1,-0.64,-0.81,-0.85,-0.25
LRIF1,-0.44,-0.12,-0.81,-0.39
KRT72,-1.08,-0.89,-1.77,-0.58
EMC4,-0.82,-0.4,-1.17,-0.87
KCNQ4,-0.67,-0.52,-0.6,-0.88
ZNF526,0.87,0.98,1.09,0.54
FLACC1,0.47,0.06,0.46,0.89
CT62,1.42,1.56,1.08,1.62
RGMB,0.25,0.02,0.49,0.25
PAX5,-0.5,-0.81,-0.35,-0.34
DCTN5,-0.93,0.21,-2.96,-0.03
ZNF414,1.52,1.4,1.62,1.54
TCF7,-1.82,-1.93,-1.63,-1.9
CBLIF,0.59,0.9,0.3,0.57
MRTFB,-0.29,-0.31,-0.32,-0.22
TDRP,-0.07,-0.51,0.38,-0.07
RALGDS,0.43,0.42,0.47,0.4
POLR2B,-3.73,-3.67,-3.73,-3.8
AP2A2,1,1.06,0.8,1.13
ZNF41,0.71,0.84,0.72,0.56
WFDC9,-0.22,-0.45,-0.1,-0.1
RNFT1,-0.23,-0.05,-0.54,-0.11
LOC285479 (retired record),-0.74,-0.81,-0.94,-0.47
IL12RB2,0.16,0.31,0.15,0.04
GPR137,0.53,1.38,0.47,-0.27
SH3BP5L,-0.79,-0.74,-0.68,-0.96
LINC00574,-0.29,-0.49,-0.31,-0.09
FAM167B,0.78,0.75,0.65,0.94
SMARCAL1,-0.1,0.2,-0.33,-0.18
HOXD12,0.11,0.51,0.02,-0.21
CAD,-0.06,0.02,-0.5,0.31
B4GALT4,-0.03,0.09,-0.24,0.07
MYO6,0.33,0.25,0.5,0.25
DPY30,1.16,1.31,0.98,1.21
MCF2,-0.87,-0.69,-1.14,-0.76
ZNF22-AS1,-0.65,-0.87,-0.37,-0.7
BTK,-0.28,-0.26,-0.06,-0.53
NPSR1-AS1,-0.12,0.18,0,-0.53
OR7E5P,1.11,1.08,1.52,0.73
ZNF710,-0.51,0.16,-0.84,-0.86
PPP1R2C,0.48,0.63,0.54,0.28
MDFI,0.75,0.6,0.95,0.72
GYPA,0.19,0.34,-0.01,0.25
TPTE,0.01,-0.01,0.17,-0.13
ATF2,-0.42,-0.66,-0.24,-0.36
B4GALNT4,0.77,0.66,0.75,0.9
RPL10A,-4.02,-3.61,-3.9,-4.54
PROCR,2.76 (active),2.61,2.86,2.81
AKR1D1,2.26 (active),2.72,2.07,1.97
GSKIP,-0.76,-0.39,-0.87,-1.01
LOC338749 (retired record),-1.27,-1.5,-1.05,-1.27
SDCBP,1.04,0.86,0.85,1.4
ITLN2,1.16,1.09,0.57,1.81
GLO1,2.97 (active),2.76,3.04,3.1
CHIC2,-0.04,0.14,-0.22,-0.05
MT1B,0.09,-0.09,0.29,0.05

2 of these entries in another layout.
Target gene	mean z-score	z-score, replicate A	z-score, replicate B	z-score, replicate C
PPP1R2C	0.48	0.63	0.54	0.28
MDFI	0.75	0.6	0.95	0.72
